System: Influenza A virus (A/California/04/2009(H1N1))
Test: Potency index, ratio of oseltamivir carboxylate IC50 to test compound IC50 for inhibition of Influenza A virus (A/California/04/2009 (H1N1-H274Y)) Neuraminidase using MUNANA as substrate preincubated for 5 to 15 mins followed by substrate addition and measured after 30 mins by fluorescence …
Conditions: time 35-45 min

Question: `CCC(CC)O[C@@H]1C=C(C(=O)O)C[C@H](NC(N)=O)[C@H]1NC(C)=O` was tested. Which Ratio IC50 did it give?
Answer: 6
